For this test, the target named is C2II channel, trypsin-activated binding component of Clostridium botulinum C2 toxin (Clostridium botulinum).

pKd: −log10 of the molar value.

One may read the pKd as −log10 of the Kd, conventionally taken in molar units. High values mean a small Kd, low ones a large Kd.

With “anthrax edema factor (from UniProt P40136 34-800)”, the Ka is 7.7e+07 M⁻¹.
Take “anthrax lethal factor (from UniProt P15917 34-809)”: the Ka was 2e+07 M⁻¹ and the pKd is 7.30.

The values are drawn from publication PMC3151279, “Cross-Reactivity of Anthrax and C2 Toxin: Protective Antigen Promotes the Uptake of Botulinum C2I Toxin into Human Endothelial Cells” (2011).
